Laboratory results as given in patent publication US11702663B2, “Bacteria-based protein delivery” (Universitaet Basel, priority 2015, dated 2023).

Test system: HeLa cells
Assay: Western blotting of T3SS translocated proteins from infected cells (digitonin lysis)
Format: cell-based, human
Conditions: digitonin lysed HeLa cells, 1 h, MOI of 100, anti-Bid western blot
From the text: Western blotting of T3SS translocated proteins from infected cells. HeLa cells in 6-well plates were infected at an MOI of 100 as described above. In case of coinfection with the TEV protease translocating Y. enterocolitica strain, the OD600 of the strains was set and the two bacterial suspensions were mixed in a tube at a ratio of 1:1 (if not otherwise indicated) before addition to the cells. At the end of the infection, the cells were washed twice with ice-cold PBS and collected by scraping in a small volume of ice-cold PBS. After centrifugation (16 000 rcf, 5 min, 4° C.) the pellet was dissolved in 0.002% digitonin supplemented with a protease inhibitor cocktail (Roche complete, Roche). The dissolved pellets were incubated for 5 minutes on ice and then centrifuged (16 000 rcf, 25 min, 4° C.). Supernatants were collected and analyzed for total protein content by […] (Pierce) before SDS PAGE and Western blotting using an anti-Myc (Santa Cruz, 9E11) or anti-Ink4C (Cell Signaling) antibody.

## YopE1-138-BID: YopE1-138 fusion to human BH3 interacting-domain death agonist (BID)
  translocated protein amount relative to endogenous Bid: 2.5 fold

## YopE1-138-tBID: YopE1-138 fusion to human truncated BID (tBID)
  translocated protein amount compared to endogenous Bid: reached about endogenous Bid levels
